Measured values from several laboratories, pooled; numbers as filed in NIAID ChemDB.

Common to all: growth or infection tests; organism: Rhinovirus; method: cytopathic effect; read-out: EC50

Neighbouring rows are from separate reports.

CSc1nsc(-c2ccc(OCc3ccccc3)cc2)c1C#N ; strain or isolate: Serotype 59 (group B) ; cell line: HELA-OHIO ; value: 12 µM
COC(=O)c1cc(CCCOc2c(C)cc(-c3noc(C)n3)cc2C)on1 ; strain or isolate: Serotype 86 ; cell line: HeLa ; value: 0.078 µg/mL
Cc1c(OCC(C)C)ccc2c1c(=O)cc(-c1ccccc1)n2C ; strain or isolate: TYPE 2/ HGP ; cell line: HELA-OHIO ; value: >1.7 µg/mL
CS(=O)(=O)c1ccc(NCc2ccc(Cl)c(Cl)c2)nc1 ; strain or isolate: TYPE 9 ; cell line: HeLa ; value: 5 µg/mL
CSc1nsc(-c2ccc(OCc3ccccc3)cc2)c1C#N ; strain or isolate: Serotype 14 (group A) ; cell line: HELA-OHIO ; value: 25 µM
CSc1nsc(-c2ccc(OCCc3ccccc3)cc2)c1C#N ; strain or isolate: Serotype 63 (group B) ; cell line: HELA-OHIO ; value: >20 µM
CC(C)S(=O)(=O)c1ccc(Cc2ccc(Cl)c(Cl)c2)nc1 ; strain or isolate: TYPE 1A ; cell line: HeLa ; value: 0.3 µg/mL
CCOC(=O)c1ccc(OCCC2CCN(c3ccc(C)nn3)CC2)cc1 ; strain or isolate: Serotype 9 (group B) ; cell line: HELA-OHIO ; value: 0.04 µM
CCS(=O)(=O)c1ccc(Cc2ccc(Cl)c(Cl)c2)nc1C(N)=O ; strain or isolate: TYPE 2 ; cell line: HeLa ; value: 2.5 µg/mL
CSc1nsc(-c2ccc(OCCCc3ccccc3)cc2)c1C#N ; strain or isolate: Serotype 89 (group B) ; cell line: HELA-OHIO ; value: 1.2 µM
CSc1nsc(-c2ccc(O)cc2)c1C#N ; strain or isolate: Serotype 72 (group A) ; cell line: HELA-OHIO ; value: >10 µM
CS(=O)(=O)c1ccc(NCCc2ccc(Cl)cc2)nc1 ; strain or isolate: TYPE 2 ; cell line: HeLa ; value: 3.1 µg/mL
CSc1nsc(-c2ccc(OCCOc3ccc(C#N)cc3)cc2)c1C#N ; strain or isolate: Serotype 15 (group B) ; cell line: HELA-OHIO ; value: >2 µM
CCOC(=O)c1ccc(OCCC2CCN(c3ccc(C)nn3)CC2)cc1 ; strain or isolate: Serotype 66 ; cell line: HeLa ; value: <0.1 µg/mL
CCn1c2c(c(=O)c3cc(C(C)C)ccc31)Cc1ccccc1-2 ; strain or isolate: Clinical isolate ; cell line: HELA-OHIO ; value: 1.9 µg/mL
CSc1nsc(-c2ccccc2)c1C#N ; strain or isolate: Serotype 85 (group B) ; cell line: HELA-OHIO ; value: >80 µM
CCOC(=O)c1ccc(OCCCOc2ccc(-c3snc(SC)c3C#N)cc2)cc1 ; strain or isolate: Serotype 9 (group B) ; cell line: HELA-OHIO ; value: >2 µM
Cc1c(-c2ccccc2)n(-c2cccc(F)c2)c2ccc(C(C)C)cc2c1=O ; strain or isolate: TYPE 89 ; cell line: HELA-OHIO ; value: 0.034 µg/mL
CS(=O)(=O)c1ccc(Cc2ccc(Cl)c(Cl)c2)nc1 ; strain or isolate: HTYPE NK'S ; cell line: HeLa ; value: >10 µg/mL
Cc1nc(-c2cc(C)c(OCCCc3cc(C(F)(F)F)no3)c(C)c2)no1 ; strain or isolate: Serotype 1A ; cell line: HeLa ; value: 0.06 µg/mL
Cc1c(-c2ccccc2)n(-c2ccc(F)cc2)c2ccc(C(C)C)cc2c1=O ; strain or isolate: 31/41F ; cell line: HELA-OHIO ; value: 0.088 µg/mL
Cc1ccc(Cc2ccc(S(C)(=O)=O)cn2)cc1 ; strain or isolate: TYPE 2 ; cell line: HeLa ; value: >10 µg/mL
CCOc1cc(CCCOc2c(C)cc(-c3noc(C)n3)cc2C)on1 ; strain or isolate: Serotype 41 ; cell line: HeLa ; value: 0.153 µg/mL

Repeating the first 2 entries:

CSc1nsc(-c2ccc(OCc3ccccc3)cc2)c1C#N ; strain or isolate: Serotype 59 (group B) ; cell line: HELA-OHIO ; value: 12 µM
COC(=O)c1cc(CCCOc2c(C)cc(-c3noc(C)n3)cc2C)on1 ; strain or isolate: Serotype 86 ; cell line: HeLa ; value: 0.078 µg/mL

ECn: concentration that inhibits the pathogen or its effect by n%.